Anti-infective test results gathered from many reports (values: NIAID ChemDB through PubChem).

All rows: whole-cell or culture tests

Blank or dashed fields: not listed here. ECn is the concentration giving n% inhibition of infection, replication or growth. Lines come from different laboratories, so protocols vary.

structure	strain	read-out	cells	read by	organism	value
Nc1nc2c(ncn2COC(CO)CO)c(=O)[nH]1	AD169	EC90	MRC-5	plaque count	Human cytomegalovirus	7.3 µM
CC(C)(C)C(=O)OCOP(=O)(COCCn1cnc2c(N)ncnc21)OCOC(=O)C(C)(C)C	GS	EC50	HSB-2	antigen / flow cytometry	Human herpesvirus 6	0.53 µM
Nc1ncnc2c1ncn2CCOCP(=O)(O)O		EC50	CD4+ T lymphocytes	syncytia	Human herpesvirus 7	8.4 µM
Cc1cc(C)cc(Cn2c(=S)ccn(CC#N)c2=O)c1	AD169	EC50			Human cytomegalovirus	53 µM
Nc1nc2c(ncn2COC(CO)CO)c(=O)[nH]1	DAVIS	EC50	HEL		Human cytomegalovirus	5.2 µM
Nc1nccc2c1ncn2[C@@H]1C[C@H](CO)[C@@H](O)[C@H]1O	229E 229E	EC50	WI-38	cytopathic effect	Human coronavirus	150 µg/mL
CC(C)Nc1nc2cc(Cl)c(Cl)cc2n1[C@H]1O[C@@H](CO)[C@H](O)[C@@H]1O	AD169	EC90	MRC-5	plaque count	Human cytomegalovirus	23.56 µM
Nc1nc2c(ncn2COCCO)c(=O)[nH]1		EC50	SupT1	syncytia	Human herpesvirus 7	>250 µg/mL
OC[C@H]1O[C@@H](n2cnc3c(Cl)nccc32)C[C@@H]1O	AD169	EC50	HEL		Human cytomegalovirus	>100 µM
Cc1ccc(Cn2c(=O)ccn(CC#N)c2=O)cc1	AD169	EC50			Human cytomegalovirus	78 µM
Nc1ncc2c(ncn2COC(CO)CO)n1		EC50	CD4+ T lymphocytes	syncytia	Human herpesvirus 7	0.0096 µg/mL
CC(C)(C)C(=O)OCOC(=O)CN(CC(=O)OCOC(=O)C(C)(C)C)P(=O)(OC[C@H]1O[C@@H](n2ccc3c(N)ncnc32)C[C@@H]1O)Oc1ccccc1	DAVIS	EC50	HEL		Human cytomegalovirus	>100 µM
N#Cc1cn([C@H]2C=C[C@@H](CO)O2)c2ncnc(N)c12		EC90	HFF	virus yield	Human cytomegalovirus	>100 µM
Nc1nc2c(ncn2CC[C@@H](O)CO)c(=O)[nH]1	GS	EC50	HSB-2	cytopathic effect	Human herpesvirus 6	>200 µM
O=c1[nH]c(=O)n([C@H]2C[C@H](O)[C@@H](CO)O2)cc1/C=C/Br		EC50	CD4+ T lymphocytes	syncytia	Human herpesvirus 7	>90 µg/mL
Cc1cc(C)cc(Cn2c(=S)ccn(Cc3ccccc3)c2=O)c1	AD169	EC50			Human cytomegalovirus	9.5 µM
Nc1nc2c(ncn2COC(CO)CO)c(=O)[nH]1		EC50	CD4+ T lymphocytes	syncytia	Human herpesvirus 7	10.7 µg/mL
Nc1ncnc2c1ncn2C[C@@H](CF)OCP(=O)(O)O	GS	EC50	HSB-2	cytopathic effect	Human herpesvirus 6	>300 µM
N#Cc1cn([C@@H]2O[C@H](CO)C[C@H]2O)c2ncnc(N)c12		EC90	HFF	virus yield	Human cytomegalovirus	1.4 µM
NC1=NC2C(C=CN2CC(CO)CCO)C(=O)N1		EC50	CD4+ T lymphocytes	syncytia	Human herpesvirus 7	>230 µg/mL
Nc1ncc2c(ncn2COC(CO)CO)n1	GS	EC50	HSB-2	cytopathic effect	Human herpesvirus 6	0.03 µM
Cc1cc(C)cc(Cn2ccc(=O)n(Cc3cc(C)cc(C)c3)c2=O)c1	AD169	EC50			Human cytomegalovirus	>14 µM
NC(=O)c1ncn([C@@H]2O[C@H](CO)[C@@H](O)[C@H]2O)n1	HRV2	EC50	HeLa		Human rhinovirus	87.04 µg/mL
Nc1ccn(C[C@@H](CO)OCP(=O)(O)O)c(=O)n1	DAVIS	EC50	HEL		Human cytomegalovirus	0.8 µM
Cc1cc(C)c(Cn2c(=O)ccn(CC#N)c2=O)c(C)c1	AD169	EC50			Human cytomegalovirus	102 µM
C[C@H](N)C(=O)OCP(=O)(OC[C@H]1O[C@@H](n2ccc3c(N)ncnc32)C[C@@H]1O)Oc1ccccc1	DAVIS	EC50	HEL		Human cytomegalovirus	>100 µM
Nc1nc2c(ncn2CCC(CO)CO)c(=O)[nH]1		EC50	CD4+ T lymphocytes	syncytia	Human herpesvirus 7	>250 µM

The last 2 rows once more:

C[C@H](N)C(=O)OCP(=O)(OC[C@H]1O[C@@H](n2ccc3c(N)ncnc32)C[C@@H]1O)Oc1ccccc1 ; strain: DAVIS ; read-out: EC50 ; cells: HEL ; organism: Human cytomegalovirus ; value: >100 µM
Nc1nc2c(ncn2CCC(CO)CO)c(=O)[nH]1 ; read-out: EC50 ; cells: CD4+ T lymphocytes ; read by: syncytia ; organism: Human herpesvirus 7 ; value: >250 µM